Measured values reported in the supplement of paper PMC10933113.
± gives the uncertainty stated by the source.

Legend:
[1] = system: cysteine peptide Ac-RFAACAA-COOH; experiment: efficacy of cysteine peptide change (negative = depletion) (% activity); higher = less depletion; conditions: incubation time: 24 h
[2] = system: KeratinoSens (HaCaT ARE-luciferase) cells; experiment: cytotoxicity AC50 (CellTiter-Fluor viability); higher = less cytotoxic; conditions: exposure time: 24 h
[3] = system: lysine peptide Ac-RFAAKAA-COOH; experiment: efficacy of lysine peptide change (negative = depletion) (% activity); higher = less depletion; conditions: incubation time: 24 h
THP-1 = experiment: efficacy of IL-8 induction relative to DMSO (% activity); higher = stronger induction; conditions: exposure time: 18 h
[4] = system: KeratinoSens (HaCaT ARE-luciferase) cells; experiment: efficacy of ARE luciferase induction relative to DMSO (% activity over DMSO); higher = stronger induction; conditions: exposure time: 24 h

C[CH2][Sn]([Br])([CH2]C)[CH2]C [Triethyltin bromide]
efficacy of cysteine peptide change [1]: 6.72 ± 18 | cytotoxicity AC50 [2]: 4.85 ± 0.67 µM | efficacy of lysine peptide change [3]: 0.35 ± 9 | efficacy of IL-8 induction (THP-1): 14.6 ± 1.1 | efficacy of ARE luciferase induction [4]: -11.8 ± 49
